# Laboratory results: article PMC10274944
# By UniProt entry, the sequences of proteins in these tests, tags left out. Residues count along the entry.
# UniProt K9N7C7, 1480-1803: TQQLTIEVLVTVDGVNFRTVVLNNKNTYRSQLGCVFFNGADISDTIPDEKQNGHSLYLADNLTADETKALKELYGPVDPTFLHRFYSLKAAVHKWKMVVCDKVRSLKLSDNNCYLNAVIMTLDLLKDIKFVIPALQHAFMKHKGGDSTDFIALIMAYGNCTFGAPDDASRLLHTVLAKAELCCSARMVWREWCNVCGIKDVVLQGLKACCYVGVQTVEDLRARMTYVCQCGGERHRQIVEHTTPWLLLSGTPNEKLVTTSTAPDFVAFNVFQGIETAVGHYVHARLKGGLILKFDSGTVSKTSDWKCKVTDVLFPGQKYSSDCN
# Target: GST-tagged MERS-CoV papain-like protease (PLpro) (MERS-CoV) (UniProt K9N7C7)
# Assay: BLI
substance,measurement,value
wild-type ubiquitin (from UniProt P0CG48 1-76) (natural protein; other documents disagree on this pair),Kd,40.8 µM
